Experimental data taken from PMC3210460, “Structure-Based Design of Ricin Inhibitors” (2011).

Molecular target: ricin toxin A chain (RTA) (Ricinus communis, UniProt P02879)

NNC(=O)c1cnc2c(=O)[nH]c(N)nc2n1
% inhibition at maximum concentration (50% inhibition not reached, maximum concentration 500 μM): 35% | IC50 (RTA inhibition, Table 1 summary of pterin-based inhibitors): > 500 µM
